Laboratory results as given in article PMC9270327 (Communications Biology, 2022).
pIC50: −log10 of the molar value. Read-outs that look alike come from different tables or passages of the source.

Amino acid sequences for entries named in this document (tags omitted). Residues count along the entry.
UniProt P00742, 235-488 limits assumed: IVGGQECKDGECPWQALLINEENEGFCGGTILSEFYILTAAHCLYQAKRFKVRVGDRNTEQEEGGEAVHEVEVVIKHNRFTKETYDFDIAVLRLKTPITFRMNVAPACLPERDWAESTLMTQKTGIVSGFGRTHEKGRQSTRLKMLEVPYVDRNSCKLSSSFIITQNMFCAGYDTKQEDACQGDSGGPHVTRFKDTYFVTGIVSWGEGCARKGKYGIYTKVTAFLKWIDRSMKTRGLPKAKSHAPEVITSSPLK
UniProt P00742, 41-179 partner limits assumed: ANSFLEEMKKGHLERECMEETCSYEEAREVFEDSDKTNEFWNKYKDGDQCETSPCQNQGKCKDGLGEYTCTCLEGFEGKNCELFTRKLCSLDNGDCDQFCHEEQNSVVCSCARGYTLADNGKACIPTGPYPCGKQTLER
UniProt Q9Y5Y6, whole entry: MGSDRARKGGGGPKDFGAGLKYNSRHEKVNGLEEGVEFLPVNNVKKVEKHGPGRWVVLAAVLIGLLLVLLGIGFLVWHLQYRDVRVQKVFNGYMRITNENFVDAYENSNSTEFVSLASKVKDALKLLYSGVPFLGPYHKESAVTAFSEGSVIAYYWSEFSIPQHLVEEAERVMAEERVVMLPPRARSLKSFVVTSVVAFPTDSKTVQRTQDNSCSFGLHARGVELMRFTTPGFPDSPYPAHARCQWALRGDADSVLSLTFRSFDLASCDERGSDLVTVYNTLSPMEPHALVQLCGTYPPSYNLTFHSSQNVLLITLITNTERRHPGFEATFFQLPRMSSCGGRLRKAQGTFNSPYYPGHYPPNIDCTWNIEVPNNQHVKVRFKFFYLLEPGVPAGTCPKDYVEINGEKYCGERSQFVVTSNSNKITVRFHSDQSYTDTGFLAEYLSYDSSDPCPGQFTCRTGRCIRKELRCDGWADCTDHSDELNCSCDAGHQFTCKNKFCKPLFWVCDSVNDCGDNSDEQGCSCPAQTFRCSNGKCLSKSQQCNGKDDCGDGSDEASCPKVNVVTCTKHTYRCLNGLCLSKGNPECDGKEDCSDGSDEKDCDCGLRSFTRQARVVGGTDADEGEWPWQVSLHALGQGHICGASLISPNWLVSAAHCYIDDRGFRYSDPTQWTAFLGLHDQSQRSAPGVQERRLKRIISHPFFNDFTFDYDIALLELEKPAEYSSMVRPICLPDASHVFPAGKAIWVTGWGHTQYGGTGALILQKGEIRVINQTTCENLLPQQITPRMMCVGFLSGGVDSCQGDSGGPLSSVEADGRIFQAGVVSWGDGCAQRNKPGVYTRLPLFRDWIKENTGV
UniProt O15393, whole entry: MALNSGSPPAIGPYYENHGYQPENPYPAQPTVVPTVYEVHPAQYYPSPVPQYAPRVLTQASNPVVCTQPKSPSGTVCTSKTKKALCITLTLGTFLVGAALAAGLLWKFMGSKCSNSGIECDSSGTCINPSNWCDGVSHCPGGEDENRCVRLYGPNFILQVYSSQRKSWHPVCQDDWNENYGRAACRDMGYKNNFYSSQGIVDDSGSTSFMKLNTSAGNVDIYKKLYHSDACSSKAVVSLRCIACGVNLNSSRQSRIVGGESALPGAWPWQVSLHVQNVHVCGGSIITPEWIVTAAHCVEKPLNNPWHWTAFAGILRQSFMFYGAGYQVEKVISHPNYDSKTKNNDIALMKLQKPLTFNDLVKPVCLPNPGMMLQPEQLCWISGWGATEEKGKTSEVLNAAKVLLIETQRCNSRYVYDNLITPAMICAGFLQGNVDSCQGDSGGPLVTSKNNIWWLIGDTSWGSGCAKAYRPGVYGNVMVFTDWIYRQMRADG

Key:
factor Xa = factor Xa (Homo sapiens, UniProt P00742); assay: Enzyme inhibition assay with purified factor Xa (Ki, dose-response); type: biochemical; conditions: for factor Xa activity, Mean (Fig. 2d): normalized, 0 nM = 100
[1] = tested on: lentiviral pseudoparticles carrying SARS-CoV-2 Omicron BA.1 (B.1.1.529) spike, Caco-2 cells; assay: Pseudovirus inhibition assay, Omicron BA.1 spike; conditions: for SARS-CoV-2 spike driven entry, Mean (0 nM = 100): Fig. 5e, Omicron BA.1 spike pseudoparticles
[2] = tested on: lentiviral pseudoparticles carrying SARS-CoV-2 Alpha (B.1.1.7) spike, Caco-2 cells; assay: Pseudovirus inhibition assay, Alpha spike; conditions: for SARS-CoV-2 spike driven entry, Mean (0 nM = 100): Fig. 5b, Alpha spike pseudoparticles
[3] = molecular target: recombinant human matriptase (Homo sapiens, UniProt Q9Y5Y6); assay: Enzyme inhibition assay with purified matriptase (Ki, dose-response); type: biochemical; conditions: quotient Ki matriptase / Ki TMPRSS2
[4] = tested on: lentiviral pseudoparticles carrying SARS-CoV-2 Wuhan-Hu-1 spike, Caco-2 cells; assay: Pseudovirus inhibition assay, wild-type (Wuhan-Hu-1) spike; conditions: for SARS-CoV-2 spike driven entry, Mean (0 nM = 100): Fig. 5a, Wuhan-Hu-1 spike pseudoparticles
[5] = molecular target: TMPRSS2 expressed in HEK293T cells (Homo sapiens, UniProt O15393); assay: Inhibition of cellular TMPRSS2 activity on HEK293T cells transiently expressing TMPRSS2; type: cell-based; conditions: 2 h; for normalized fluorescence intensity, HEK293T TMPRSS2, Mean (Fig. 4b): corrected for mock-transfected cells
[6] = tested on: SARS-CoV-2 Beta (B.1.351), Caco-2 cells; assay: SARS-CoV-2 inhibition assay, VOC Beta (in-cell ELISA); conditions: for SARS-CoV-2 infection, Mean (0 nM = 100): Fig. 6d, VOC Beta; for pIC50: read-out: IC50 SARS-CoV-2 Beta, Caco-2 cells
[7] = tested on: lentiviral pseudoparticles carrying SARS-CoV-2 Delta (B.1.617.2) spike, Caco-2 cells; assay: Pseudovirus inhibition assay, Delta spike; conditions: for SARS-CoV-2 spike driven entry, Mean (0 nM = 100): Fig. 5d, Delta spike pseudoparticles
[8] = tested on: SARS-CoV-2 Wuhan-Hu-1, Caco-2 cells; assay: SARS-CoV-2 inhibition assay, Wuhan-Hu-1 (in-cell ELISA); conditions: for SARS-CoV-2 infection, Mean (0 nM = 100): Fig. 6a, Wuhan-Hu-1; for pIC50: read-out: IC50 SARS-CoV-2 Wuhan-Hu-1, Caco-2 cells
TMPRSS2 = TMPRSS2 (Homo sapiens, UniProt O15393); conditions: for TMPRSS2 activity, Mean (Fig. 2a): normalized, 0 nM = 100
[9] = molecular target: cellular TMPRSS2 activity, Caco-2 cells (Homo sapiens, UniProt O15393); conditions: for cellular protease activity on Caco-2 cells, Mean (Fig. 4a): normalized, 0 nM = 100
[10] = tested on: SARS-CoV-2 Alpha (B.1.1.7), Caco-2 cells; assay: SARS-CoV-2 inhibition assay, VOC Alpha (in-cell ELISA); conditions: for SARS-CoV-2 infection, Mean (0 nM = 100): Fig. 6c, VOC Alpha; for pIC50: read-out: IC50 SARS-CoV-2 Alpha, Caco-2 cells
[11] = tested on: lentiviral pseudoparticles carrying SARS-CoV-2 Beta (B.1.351) spike, Caco-2 cells; assay: Pseudovirus inhibition assay, Beta spike; conditions: for SARS-CoV-2 spike driven entry, Mean (0 nM = 100): Fig. 5c, Beta spike pseudoparticles
[12] = in-cell ELISA 2 days post infection

## CC(=O)N[C@@H](CC(N)=O)C(=O)N1CCC[C@H]1C(=O)NC(CCCNC(=N)N)C(=O)c1nc2ccccc2s1 (stereo partly shown)
Factor Xa; 0.02 nM
  factor Xa activity, Mean (Fig. 2d): 95.1086
Factor Xa; 0.04 nM
  factor Xa activity, Mean (Fig. 2d): 92.1131
Factor Xa; 0.2 nM
  factor Xa activity, Mean (Fig. 2d): 91.4826
Factor Xa; 2 nM
  factor Xa activity, Mean (Fig. 2d): 90.5364
Factor Xa; 20 nM
  factor Xa activity, Mean (Fig. 2d): 72.2396
Factor Xa; 200 nM
  factor Xa activity, Mean (Fig. 2d): 33.9124
Factor Xa; 10000 nM
  factor Xa activity, Mean (Fig. 2d): 7.413
Factor Xa; 100000 nM
  factor Xa activity, Mean (Fig. 2d): 8.99
Factor Xa; quotient Ki factor Xa / Ki TMPRSS2
  Selectivity index Factor Xa: 16.4
[1]; compound 3.2 nM
  SARS-CoV-2 spike driven entry, Mean (0 nM = 100): 103.951
[1]; compound 16 nM
  SARS-CoV-2 spike driven entry, Mean (0 nM = 100): 90.1812
[1]; compound 80 nM
  SARS-CoV-2 spike driven entry, Mean (0 nM = 100): 63.0313
[1]; compound 400 nM
  SARS-CoV-2 spike driven entry, Mean (0 nM = 100): 37.1174
[1]; compound 2000 nM
  SARS-CoV-2 spike driven entry, Mean (0 nM = 100): 15.0517
[1]; compound 10000 nM
  SARS-CoV-2 spike driven entry, Mean (0 nM = 100): 3.7
[1]; compound 50000 nM
  SARS-CoV-2 spike driven entry, Mean (0 nM = 100): 4.974
[1]; read-out: IC50 pseudotyped lentivirus Omicron BA.1, Caco-2 cells, luciferase 2 days post transduction
  pIC50: 6.71
[2]; compound 3.2 nM
  SARS-CoV-2 spike driven entry, Mean (0 nM = 100): 90.773
[2]; compound 16 nM
  SARS-CoV-2 spike driven entry, Mean (0 nM = 100): 82.272
[2]; compound 80 nM
  SARS-CoV-2 spike driven entry, Mean (0 nM = 100): 71.344
[2]; compound 400 nM
  SARS-CoV-2 spike driven entry, Mean (0 nM = 100): 45.062
[2]; compound 2000 nM
  SARS-CoV-2 spike driven entry, Mean (0 nM = 100): 19.8955
[2]; compound 10000 nM
  SARS-CoV-2 spike driven entry, Mean (0 nM = 100): 3.898
[2]; compound 50000 nM
  SARS-CoV-2 spike driven entry, Mean (0 nM = 100): 1.112
[2]; read-out: IC50 pseudotyped lentivirus Alpha, Caco-2 cells, luciferase 2 days post transduction
  pIC50: 6.58
[3]
  Selectivity index Matriptase: 2.1
[4]; compound 32 nM
  SARS-CoV-2 spike driven entry, Mean (0 nM = 100): 85.246
[4]; compound 160 nM
  SARS-CoV-2 spike driven entry, Mean (0 nM = 100): 76.54
[4]; compound 800 nM
  SARS-CoV-2 spike driven entry, Mean (0 nM = 100): 37.531
[4]; compound 4000 nM
  SARS-CoV-2 spike driven entry, Mean (0 nM = 100): 10.003
[4]; compound 20000 nM
  SARS-CoV-2 spike driven entry, Mean (0 nM = 100): 2.2675
[4]; compound 100000 nM
  SARS-CoV-2 spike driven entry, Mean (0 nM = 100): 1.7495
[4]; read-out: IC50 pseudotyped lentivirus Wuhan-Hu-1, Caco-2 cells, luciferase 2 days post transduction
  pIC50: 6.33
[5]; 0.5 nM
  normalized fluorescence intensity, HEK293T TMPRSS2, Mean (Fig. 4b): 56.545
[5]; 5 nM
  normalized fluorescence intensity, HEK293T TMPRSS2, Mean (Fig. 4b): 47.24
[5]; 50 nM
  normalized fluorescence intensity, HEK293T TMPRSS2, Mean (Fig. 4b): 21.26
[5]; 500 nM
  normalized fluorescence intensity, HEK293T TMPRSS2, Mean (Fig. 4b): 6.37
[5]; 5000 nM
  normalized fluorescence intensity, HEK293T TMPRSS2, Mean (Fig. 4b): 2.07
[5]; 50000 nM
  normalized fluorescence intensity, HEK293T TMPRSS2, Mean (Fig. 4b): -9.245
[5]; read-out: IC50 HEK293T TMPRSS2, corrected for mock-transfected HEK293T cells
  pIC50: 8.66
[6]; compound 32 nM
  SARS-CoV-2 infection, Mean (0 nM = 100): 88.3299
[6]; compound 160 nM
  SARS-CoV-2 infection, Mean (0 nM = 100): 85.7403
[6]; compound 800 nM
  SARS-CoV-2 infection, Mean (0 nM = 100): 74.777
[6]; compound 4000 nM
  SARS-CoV-2 infection, Mean (0 nM = 100): 79.2031
[6]; compound 20000 nM
  SARS-CoV-2 infection, Mean (0 nM = 100): 1.415
[6]; compound 100000 nM
  SARS-CoV-2 infection, Mean (0 nM = 100): -2.338
[6]; 2 days post infection
  pIC50: 5.20
[6]; [12]
  pIC50: 5.20
[7]; compound 3.2 nM
  SARS-CoV-2 spike driven entry, Mean (0 nM = 100): 88.2203
[7]; compound 16 nM
  SARS-CoV-2 spike driven entry, Mean (0 nM = 100): 83.5589
[7]; compound 80 nM
  SARS-CoV-2 spike driven entry, Mean (0 nM = 100): 74.0893
[7]; compound 400 nM
  SARS-CoV-2 spike driven entry, Mean (0 nM = 100): 48.0755
[7]; compound 2000 nM
  SARS-CoV-2 spike driven entry, Mean (0 nM = 100): 17.171
[7]; compound 10000 nM
  SARS-CoV-2 spike driven entry, Mean (0 nM = 100): 3.181
[7]; compound 50000 nM
  SARS-CoV-2 spike driven entry, Mean (0 nM = 100): 0.8148
[7]; read-out: IC50 pseudotyped lentivirus Delta, Caco-2 cells, luciferase 2 days post transduction
  pIC50: 6.54
[8]; compound 32 nM
  SARS-CoV-2 infection, Mean (0 nM = 100): 104.615
[8]; compound 160 nM
  SARS-CoV-2 infection, Mean (0 nM = 100): 108.018
[8]; compound 800 nM
  SARS-CoV-2 infection, Mean (0 nM = 100): 104.617
[8]; compound 4000 nM
  SARS-CoV-2 infection, Mean (0 nM = 100): 56.7382
[8]; compound 20000 nM
  SARS-CoV-2 infection, Mean (0 nM = 100): 8.19
[8]; compound 100000 nM
  SARS-CoV-2 infection, Mean (0 nM = 100): 0.9597
[8]; 2 days post infection
  pIC50: 5.33
[8]; [12]
  pIC50: 5.33
TMPRSS2; 0.05 nM
  TMPRSS2 activity, Mean (Fig. 2a): 103.592
TMPRSS2; 0.5 nM
  TMPRSS2 activity, Mean (Fig. 2a): 102.086
TMPRSS2; 5 nM
  TMPRSS2 activity, Mean (Fig. 2a): 54.1136
TMPRSS2; 50 nM
  TMPRSS2 activity, Mean (Fig. 2a): 9.965
TMPRSS2; 500 nM
  TMPRSS2 activity, Mean (Fig. 2a): 1.043
TMPRSS2; 5000 nM
  TMPRSS2 activity, Mean (Fig. 2a): 0
TMPRSS2; 50000 nM
  TMPRSS2 activity, Mean (Fig. 2a): 0.1159
TMPRSS2; 500000 nM
  TMPRSS2 activity, Mean (Fig. 2a): -0.4635
TMPRSS2; ratio of Ki values
  fold more active than FOY-251 against isolated TMPRSS2: 2–3 fold
[9]; 0.1 nM
  cellular protease activity on Caco-2 cells, Mean (Fig. 4a): 91.9048
[9]; 1 nM
  cellular protease activity on Caco-2 cells, Mean (Fig. 4a): 92.381
[9]; 10 nM
  cellular protease activity on Caco-2 cells, Mean (Fig. 4a): 51.6667
[9]; 100 nM
  cellular protease activity on Caco-2 cells, Mean (Fig. 4a): 22.619
[9]; 1000 nM
  cellular protease activity on Caco-2 cells, Mean (Fig. 4a): 2.619
[9]; 10000 nM
  cellular protease activity on Caco-2 cells, Mean (Fig. 4a): 0.9524
[9]; 100000 nM
  cellular protease activity on Caco-2 cells, Mean (Fig. 4a): 1.071
[9]; read-out: IC50 Caco2, cell-mediated proteolysis of Boc-Gln-Ala-Arg-AMC, 30 min preincubation
  pIC50: 7.90
[10]; compound 32 nM
  SARS-CoV-2 infection, Mean (0 nM = 100): 94.3889
[10]; compound 160 nM
  SARS-CoV-2 infection, Mean (0 nM = 100): 95.9912
[10]; compound 800 nM
  SARS-CoV-2 infection, Mean (0 nM = 100): 93.3105
[10]; compound 4000 nM
  SARS-CoV-2 infection, Mean (0 nM = 100): 86.2794
[10]; compound 20000 nM
  SARS-CoV-2 infection, Mean (0 nM = 100): 2.126
[10]; compound 100000 nM
  SARS-CoV-2 infection, Mean (0 nM = 100): -2.404
[10]; 2 days post infection
  pIC50: 5.17
[10]; [12]
  pIC50: 5.17
[11]; compound 3.2 nM
  SARS-CoV-2 spike driven entry, Mean (0 nM = 100): 68.321
[11]; compound 16 nM
  SARS-CoV-2 spike driven entry, Mean (0 nM = 100): 77.68
[11]; compound 80 nM
  SARS-CoV-2 spike driven entry, Mean (0 nM = 100): 60.2285
[11]; compound 400 nM
  SARS-CoV-2 spike driven entry, Mean (0 nM = 100): 49.373
[11]; compound 2000 nM
  SARS-CoV-2 spike driven entry, Mean (0 nM = 100): 15.6375
[11]; compound 10000 nM
  SARS-CoV-2 spike driven entry, Mean (0 nM = 100): 3.6185
[11]; compound 50000 nM
  SARS-CoV-2 spike driven entry, Mean (0 nM = 100): 0.9345
[11]; read-out: IC50 pseudotyped lentivirus Beta, Caco-2 cells, luciferase 2 days post transduction
  pIC50: 6.81
